Results of unrelated studies side by side (data: NIAID ChemDB).

Blank or dashed fields: not listed here. Conditions beyond the fields shown may differ between rows. Inhibition is in % at the dose shown (toxicity tests: loss of growth or viability). A number after MIC or MFC names an inhibition level or a share of isolates. ICn is the concentration giving n% inhibition. MIC bound comes from a single tested concentration.

compound | kind | agent | strain | cell line | protein | read by | endpoint | tested at | result
CCN(CC)CC(O)CC#N | culture | Mycobacterium tuberculosis | H37Rv | - | - | - | MIC | - | >100 µg/mL
CC(=O)c1ccc(-c2cncc(N3CCN(c4ccccc4F)CC3)n2)cc1 | target | Cytomegalovirus | - | - | UL97 kinase | - | inhibition | 1 µM | <50%
C=CCc1ccc(OC)c(OC)c1 | culture | Candida tropicalis | 2480 | - | - | turbidity | MIC90 | - | 340 µg/mL
Cc1ccc(-c2cncc(N3CCN(c4ccccn4)CC3)n2)cc1C | target | Cytomegalovirus | - | - | UL97 kinase | - | IC50 | - | <10 µM
O=C(O)c1cc2ccccc2[nH]1 | culture | Mycobacterium tuberculosis | H37Rv | - | - | - | MIC | - | >100 µg/mL
O=C(N/N=C/c1ccc2c(c1)OCO2)C(=O)N/N=C/c1ccc2c(c1)OCO2 | culture | Mycobacterium tuberculosis | H37Rv | - | - | BACTEC | MIC | - | ≥12.5 µg/mL
Fc1ccc(N2CCCCC2)c(NC(=S)c2ccncc2)c1 | host protein | - | - | - | Pim-3 | kinase activity | inhibition | 10 µM | 27%
COc1ccc(/C(=N\NC(=O)C(N)=O)C(c2ccc(OC)cc2)C2(O)C(=O)Nc3c(Cl)cccc32)cc1 | culture | Mycobacterium tuberculosis | H37Rv | - | - | BACTEC | MIC bound | - | ≤12.5 µg/mL
COc1cccc(N2CCN(c3cncc(-c4ccc(SC)cc4)n3)CC2)c1 | target | Cytomegalovirus | - | - | UL97 kinase | - | inhibition | 1 µM | <50%
NCCNCCc1ccccn1 | culture | Mycobacterium tuberculosis | H37Rv | - | - | - | MIC | - | >100 µg/mL
Clc1ccc(N2CCN(c3cncc(-c4cccc5ccccc45)n3)CC2)cc1Cl | target | Cytomegalovirus | - | - | UL97 kinase | - | inhibition | 10 µM | >15%
Br.CCN(CC)CCNc1cc(OCCO)cc2cccnc12 | culture | Mycobacterium tuberculosis | H37Rv | - | - | - | MIC | - | >100 µg/mL
COc1cc2c(c(NC(C)CCCN=C(N)NC(N)=NC(C)C)c1)NCCC2 | culture | Mycobacterium tuberculosis | H37Rv | VERO | - | - | MIC | - | 6.25 µg/mL
O=C1OC(=O)c2c(I)c(I)c(I)c(I)c21 | culture | Mycobacterium tuberculosis | H37Rv | - | - | - | MIC | - | 100 µg/mL
OCc1ccc(-c2cncc(N3CCN(c4ccc(F)cc4)CC3)n2)cc1 | target | Cytomegalovirus | - | - | UL97 kinase | - | IC50 | - | <10 µM
CN1C/C(=C\c2ccc(Cl)cc2)C(=O)/C(=C/c2ccc(Cl)cc2)C1 | culture | Mycobacterium tuberculosis | H37Rv | - | - | BACTEC | MIC bound | - | >12.5 µg/mL
Cc1cc(C)cc(-c2cncc(N3CCN(c4ccc(F)cc4F)CC3)n2)c1 | target | Cytomegalovirus | - | - | UL97 kinase | - | IC50 | - | <100 µM
CCOC(=O)/C(C#N)=C\c1c[nH]c2ccccc12 | culture | Mycobacterium tuberculosis | H37Rv | - | - | - | MIC | - | >100 µg/mL
O=C1OC(CO)C(OC2OC(CO)C(O)C(O)C2O)C(O)C1O | culture | Mycobacterium tuberculosis | H37Rv | - | - | BACTEC | inhibition | 12.5 µg/mL | 11%
FC(F)(F)c1ccc(-c2cncc(N3CCN(c4cnccn4)CC3)n2)cc1 | target | Cytomegalovirus | - | - | UL97 kinase | - | inhibition | 1 µM | <50%
Cc1cc(OC2OC(CO)C(O)C(O)C2O)ccc1O | culture | Mycobacterium tuberculosis | H37Rv | - | - | BACTEC | MIC | - | ≥12.5 µg/mL
Cc1ccc(-c2ccccn2)cc1N | culture | Mycobacterium tuberculosis | H37Rv | - | - | - | MIC | - | >100 µg/mL
CO[C@@H]1/C=C\C=C(/C)C(=O)NC2=CC(=O)C(N)=C(C[C@@H](C)C[C@@H](OC)[C@@H](O)[C@H](C)/C=C(\C)[C@H]1OC(N)=O)C2=O | culture | Mycobacterium tuberculosis | H37Rv | - | - | BACTEC | MIC bound | - | >12.5 µg/mL
CN(C)c1ccc(C(=O)O)cc1N=Nc1ccc(S(=O)(=O)O)cc1 | culture | Mycobacterium tuberculosis | H37Rv | - | - | - | MIC | - | >100 µg/mL
Cc1c(C(=O)/C=C/c2ccccc2[N+](=O)[O-])[n+](=O)c2ccccc2n1[O-] | culture | Mycobacterium tuberculosis | TAC-R | - | - | - | MIC | - | 1.6 µg/mL
CN(CCO)c1ccccc1 | culture | Mycobacterium tuberculosis | H37Rv | - | - | - | MIC | - | >100 µg/mL
Nc1nc2c(C(=O)N3CCCC3)nnn2c2ccccc12 | culture | Mycobacterium tuberculosis | H37Rv | - | - | BACTEC | inhibition | 12.5 µg/mL | -1%
O=Cc1ccc(O)cc1O | culture | Mycobacterium tuberculosis | H37Rv | - | - | - | MIC | - | >100 µg/mL
CC1NC(C(=O)O)Cc2c1[nH]c1ccccc21 | culture | Mycobacterium tuberculosis | H37Rv | - | - | BACTEC | MIC bound | - | >12.5 µg/mL
COc1ccccc1N1CCN(c2cncc(-c3ccc(N(C)C)cc3)n2)CC1 | target | Cytomegalovirus | - | - | UL97 kinase | - | IC50 | - | <100 µM

The last 4 rows once more:

compound	kind	agent	strain	cell line	protein	read by	endpoint	tested at	result
Nc1nc2c(C(=O)N3CCCC3)nnn2c2ccccc12	culture	Mycobacterium tuberculosis	H37Rv	-	-	BACTEC	inhibition	12.5 µg/mL	-1%
O=Cc1ccc(O)cc1O	culture	Mycobacterium tuberculosis	H37Rv	-	-	-	MIC	-	>100 µg/mL
CC1NC(C(=O)O)Cc2c1[nH]c1ccccc21	culture	Mycobacterium tuberculosis	H37Rv	-	-	BACTEC	MIC bound	-	>12.5 µg/mL
COc1ccccc1N1CCN(c2cncc(-c3ccc(N(C)C)cc3)n2)CC1	target	Cytomegalovirus	-	-	UL97 kinase	-	IC50	-	<100 µM